# Sequence variants of PSTVd stem 15 after infection

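Three N. benthamiana plants were inoculated with the whole mutant pool. Samples came from the inoculated region at 5 days, the leaf margin at 10 and upper systemic leaves at 12.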

Region: stem 15 of PSTVd (intermediate strain), upper and lower strand joined, each 5' to 3', the first 9 letters being the upper strand. Wild type: CUGGAGCGAUCGCUUCGG. Varied positions (N): CUGGAGCGAUNGNNUNNG.

Values are reads per thousand in the sample; higher means more abundant, 0 means not found.
Each site shows the three plants.
"Pool" is the share in the plasmid pool used as inoculum, on the same scale.
The inoculated region was read from the minus strand, the other sites from the plus strand.
The authors trace changes outside the varied positions to PCR and sequencing errors or to mutation in the plant; presence does not show that a variant is infectious alone.
For reference, wild type rose from 10.2 per thousand in the pool to 285, 367, 312 (inoculated region), 785, 865, 782 (leaf margin) and 854, 898, 915 (systemic leaves).
With 36,693-63,082 reads a sample, very low values are single reads.

| sequence | pool | inoculated region | leaf margin | systemic leaves |
|---|---|---|---|---|
| CUGGAGCGAUCGAAUAUG | 1.12 | 0.352 / 0.147 / 0.242 | 0 / 0 / 0.0159 | 0 / 0 / 0 |
| CUGGAGCGAUCGAAUCAG | 0.792 | 0.313 / 0.356 / 0.261 | 0.0827 / 0 / 0.0159 | 0 / 0 / 0 |
| CUGGAGCGAUCGAAUCCG | 0.840 | 0.313 / 0.272 / 0.298 | 0.0414 / 0.0818 / 0.0317 | 0 / 0 / 0 |
| CUGGAGCGAUCGAAUCGG | 1.78 | 1.39 / 1.30 / 2.07 | 0 / 0.0273 / 0 | 0.693 / 0 / 0.0199 |
| CUGGAGCGAUCGAAUCUG | 0.792 | 0.157 / 0.272 / 0.298 | 0.0207 / 0.0273 / 0.0159 | 0 / 0 / 0 |
| CUGGAGCGAUCGAAUGAG | 1.08 | 0.235 / 0.419 / 0.372 | 0.0414 / 0 / 0.0159 | 0 / 0 / 0 |
| CUGGAGCGAUCGAAUGCG | 0.711 | 0.196 / 0.251 / 0.391 | 0.103 / 0 / 0.0317 | 0 / 0 / 0 |
| CUGGAGCGAUCGAAUGGG | 0.760 | 0.313 / 0.314 / 0.279 | 0.0620 / 0 / 0.0159 | 0 / 0 / 0 |
| CUGGAGCGAUCGAAUGUG | 0.808 | 0.215 / 0.188 / 0.391 | 0.0827 / 0.0273 / 0.0159 | 0 / 0 / 0 |
| CUGGAGCGAUCGAAUUAG | 0.646 | 0.274 / 0.335 / 0.354 | 0.0414 / 0.0273 / 0.0159 | 0 / 0 / 0 |
| CUGGAGCGAUCGAAUUCG | 0.824 | 0.333 / 0.147 / 0.354 | 0.0620 / 0.0545 / 0.0317 | 0 / 0 / 0 |
| CUGGAGCGAUCGAAUUGG | 0.970 | 0.176 / 0.251 / 0.372 | 0.0620 / 0 / 0.0317 | 0 / 0 / 0 |
| CUGGAGCGAUCGAAUUUG | 0.695 | 0.352 / 0.293 / 0.261 | 0.0414 / 0.0818 / 0.0634 | 0 / 0 / 0 |
| CUGGAGCGAUCGACUAAG | 1.05 | 0.176 / 1.07 / 0.428 | 0 / 0.0545 / 0.0159 | 0 / 0 / 0 |
| CUGGAGCGAUCGACUACG | 0.986 | 0.313 / 0.293 / 0.354 | 0 / 0 / 0 | 0 / 0 / 0 |
| CUGGAGCGAUCGACUAGG | 0.695 | 0.117 / 0.314 / 0.316 | 0 / 0.0818 / 0.0159 | 0 / 0 / 0 |
| CUGGAGCGAUCGACUAUG | 0.582 | 0.196 / 0.272 / 0.298 | 0.0827 / 0.0818 / 0.0159 | 0 / 0 / 0 |
| CUGGAGCGAUCGACUCAG | 0.937 | 0.294 / 0.377 / 0.391 | 0.103 / 0.0273 / 0 | 0 / 0 / 0 |
| CUGGAGCGAUCGACUCCG | 1.05 | 0.254 / 0.482 / 0.596 | 0.0827 / 0 / 0.0317 | 0 / 0 / 0 |
| CUGGAGCGAUCGACUCGG | 0.937 | 0.430 / 0.335 / 0.242 | 0.0827 / 0.0273 / 0 | 0 / 0 / 0 |
| CUGGAGCGAUCGACUCUG | 0.776 | 0.313 / 0.251 / 0.354 | 0.0414 / 0.0273 / 0.0317 | 0 / 0 / 0 |
| CUGGAGCGAUCGACUGAG | 0.889 | 0.176 / 0.419 / 0.261 | 0 / 0.109 / 0 | 0 / 0 / 0 |
| CUGGAGCGAUCGACUGCG | 0.824 | 0.235 / 0.230 / 0.261 | 0.0414 / 0.0273 / 0.0159 | 0 / 0 / 0 |
| CUGGAGCGAUCGACUGGG | 0.711 | 0.235 / 0.168 / 0.223 | 0.0620 / 0 / 0.0159 | 0 / 0 / 0 |
| CUGGAGCGAUCGACUGUG | 0.566 | 0.137 / 0.335 / 0.354 | 0.0620 / 0.0545 / 0.0159 | 0 / 0 / 0 |
| CUGGAGCGAUCGACUUAG | 0.695 | 1.51 / 1.15 / 0.298 | 0.0620 / 0.0273 / 0.0476 | 0 / 0 / 0 |
| CUGGAGCGAUCGACUUCG | 0.711 | 0.274 / 0.209 / 0.633 | 0.0414 / 0.0273 / 0.0317 | 1.74 / 0 / 0 |
| CUGGAGCGAUCGACUUGG | 1.00 | 0.274 / 1.09 / 0.279 | 0.0620 / 0.0545 / 0.0159 | 0 / 0 / 0 |
| CUGGAGCGAUCGACUUUG | 0.727 | 0.0783 / 0.251 / 0.465 | 0 / 0 / 0 | 1.70 / 0 / 0 |
| CUGGAGCGAUCGAGUAAG | 0.792 | 0.294 / 0.356 / 0.223 | 0.0414 / 0.0273 / 0.0634 | 0 / 0 / 0 |
| CUGGAGCGAUCGAGUACG | 0.840 | 0.274 / 0.293 / 0.279 | 0.0620 / 0 / 0 | 0 / 0 / 0 |
| CUGGAGCGAUCGAGUAGG | 1.07 | 0.196 / 0.188 / 0.540 | 0.0414 / 0 / 0.0317 | 0 / 0 / 0 |
| CUGGAGCGAUCGAGUAUG | 0.937 | 0.294 / 0.293 / 0.279 | 0.0414 / 0 / 0.0634 | 0 / 0 / 0 |
| CUGGAGCGAUCGAGUCAG | 0.824 | 0.333 / 0.230 / 0.298 | 0.103 / 0.0545 / 0.0476 | 0 / 0 / 0 |
| CUGGAGCGAUCGAGUCCG | 2.13 | 0.724 / 0.712 / 0.726 | 0.124 / 0 / 0.0317 | 0 / 0 / 0.0199 |
| CUGGAGCGAUCGAGUCGG | 0.695 | 0.196 / 0.314 / 0.279 | 0.103 / 0.0273 / 0 | 0 / 0 / 0 |
| CUGGAGCGAUCGAGUCUG | 0.711 | 0.235 / 0.314 / 0.298 | 0.0827 / 0 / 0 | 0 / 0 / 0 |
| CUGGAGCGAUCGAGUGAG | 0.760 | 0.254 / 0.251 / 0.223 | 0.0827 / 0.0273 / 0.0159 | 0 / 0 / 0 |
| CUGGAGCGAUCGAGUGCG | 0.873 | 0.411 / 0.440 / 0.223 | 0.0620 / 0.0273 / 0.0159 | 0 / 0 / 0 |
| CUGGAGCGAUCGAGUGGG | 0.905 | 0.372 / 0.251 / 0.149 | 0.0620 / 0 / 0.0317 | 0 / 0 / 0 |
| CUGGAGCGAUCGAGUGUG | 0.905 | 0.391 / 0.209 / 0.354 | 0.0414 / 0 / 0.0159 | 0 / 0 / 0 |
| CUGGAGCGAUCGAGUUAG | 0.873 | 0.352 / 0.314 / 0.279 | 0.0827 / 0.0273 / 0.0317 | 0 / 0 / 0 |
| CUGGAGCGAUCGAGUUCG | 0.857 | 0.313 / 0.188 / 0.372 | 0.103 / 0 / 0.0317 | 0 / 0 / 0 |
| CUGGAGCGAUCGAGUUGG | 0.840 | 0.176 / 0.230 / 0.242 | 0.0414 / 0.0545 / 0.0317 | 0 / 0 / 0 |
| CUGGAGCGAUCGAGUUUG | 1.05 | 0.313 / 0.272 / 0.316 | 0.0207 / 0.0545 / 0.0159 | 0 / 0 / 0 |
| CUGGAGCGAUCGAUUAAG | 0.760 | 0.176 / 0.272 / 0.205 | 0.0207 / 0.0273 / 0.0317 | 0 / 0 / 0 |
| CUGGAGCGAUCGAUUACG | 0.921 | 0.294 / 0.482 / 0.521 | 0 / 0.0818 / 0.0159 | 0 / 0 / 0 |
| CUGGAGCGAUCGAUUAGG | 0.857 | 0.313 / 0.419 / 0.223 | 0.0414 / 0.0273 / 0.0159 | 0 / 0 / 0 |
| CUGGAGCGAUCGAUUAUG | 1.08 | 0.294 / 0.251 / 0.298 | 0.0620 / 0 / 0.0317 | 0 / 0 / 0 |
| CUGGAGCGAUCGAUUCAG | 0.727 | 0.352 / 0.293 / 0.335 | 0.0827 / 0.0273 / 0.0317 | 0 / 0 / 0 |
| CUGGAGCGAUCGAUUCCG | 1.42 | 0.470 / 0.503 / 0.391 | 0.0414 / 0.109 / 0.0317 | 0 / 0 / 0 |
| CUGGAGCGAUCGAUUCGG | 1.10 | 0.685 / 0.419 / 0.558 | 0.662 / 0.0818 / 0.143 | 0.198 / 0.111 / 0.140 |
| CUGGAGCGAUCGAUUCUG | 0.614 | 0.333 / 0.440 / 0.391 | 0.0414 / 0.0545 / 0.0159 | 0 / 0 / 0 |
| CUGGAGCGAUCGAUUGAG | 1.36 | 0.352 / 0.503 / 0.540 | 0 / 0.0273 / 0 | 0 / 0 / 0 |
| CUGGAGCGAUCGAUUGCG | 0.905 | 0.352 / 0.251 / 0.298 | 0 / 0 / 0.0159 | 0 / 0 / 0 |
| CUGGAGCGAUCGAUUGGG | 0.760 | 0.294 / 0.398 / 0.298 | 0.0620 / 0 / 0.0476 | 0 / 0 / 0 |
| CUGGAGCGAUCGAUUGUG | 0.808 | 0.313 / 0.293 / 0.335 | 0.0207 / 0.0818 / 0.0159 | 0 / 0 / 0 |
| CUGGAGCGAUCGAUUUAG | 0.986 | 0.196 / 0.314 / 0.205 | 0.0620 / 0.0273 / 0.0159 | 0 / 0 / 0 |
| CUGGAGCGAUCGAUUUCG | 0.840 | 0.313 / 0.230 / 0.242 | 0.124 / 0.0273 / 0.0159 | 0 / 0 / 0 |
| CUGGAGCGAUCGAUUUGG | 0.937 | 0.254 / 0.251 / 0.242 | 0.0414 / 0.0273 / 0.0317 | 0 / 0 / 0 |
| CUGGAGCGAUCGAUUUUG | 1.37 | 0.607 / 0.503 / 0.633 | 0.145 / 0 / 0.0317 | 0 / 0 / 0.0199 |
| CUGGAGCGAUCGCAUAAG | 0.873 | 0.254 / 0.314 / 0.335 | 0.103 / 0.0273 / 0.0159 | 0 / 0 / 0 |
| CUGGAGCGAUCGCAUACG | 0.727 | 0.333 / 0.209 / 0.279 | 0 / 0.0273 / 0 | 0 / 0 / 0 |
| CUGGAGCGAUCGCAUAGG | 0.937 | 0.352 / 0.293 / 0.465 | 0.0620 / 0.0273 / 0.0159 | 0 / 0 / 0 |
| CUGGAGCGAUCGCAUAUG | 0.905 | 0.352 / 0.188 / 0.335 | 0 / 0.0545 / 0.0159 | 0 / 0 / 0 |
| CUGGAGCGAUCGCAUCAG | 0.921 | 0.294 / 0.105 / 0.279 | 0 / 0.0545 / 0.0317 | 0 / 0 / 0 |
| CUGGAGCGAUCGCAUCCG | 1.37 | 0.313 / 0.314 / 0.186 | 0.0620 / 0.0545 / 0 | 0.0198 / 0 / 0.0199 |
| CUGGAGCGAUCGCAUCGG | 0.937 | 0.626 / 0.544 / 0.577 | 0.289 / 0.382 / 0.206 | 0.376 / 0.288 / 0.199 |
| CUGGAGCGAUCGCAUCUG | 0.986 | 0.470 / 0.377 / 0.316 | 0.0620 / 0 / 0.587 | 0 / 0 / 0 |
| CUGGAGCGAUCGCAUGAG | 0.921 | 0.274 / 0.335 / 0.186 | 0.0207 / 0.0273 / 0 | 0 / 0 / 0 |
| CUGGAGCGAUCGCAUGCG | 0.533 | 0.294 / 0.335 / 0.279 | 0.0620 / 0.0545 / 0.0317 | 0 / 0 / 0 |

The first 5 entries again:

* CUGGAGCGAUCGAAUAUG (pool 1.12) -> inoculated region 0.352 / 0.147 / 0.242; leaf margin 0 / 0 / 0.0159; systemic leaves 0 / 0 / 0
* CUGGAGCGAUCGAAUCAG (pool 0.792) -> inoculated region 0.313 / 0.356 / 0.261; leaf margin 0.0827 / 0 / 0.0159; systemic leaves 0 / 0 / 0
* CUGGAGCGAUCGAAUCCG (pool 0.840) -> inoculated region 0.313 / 0.272 / 0.298; leaf margin 0.0414 / 0.0818 / 0.0317; systemic leaves 0 / 0 / 0
* CUGGAGCGAUCGAAUCGG (pool 1.78) -> inoculated region 1.39 / 1.30 / 2.07; leaf margin 0 / 0.0273 / 0; systemic leaves 0.693 / 0 / 0.0199
* CUGGAGCGAUCGAAUCUG (pool 0.792) -> inoculated region 0.157 / 0.272 / 0.298; leaf margin 0.0207 / 0.0273 / 0.0159; systemic leaves 0 / 0 / 0

The measurements come from Wu et al. 2024 (doi:10.1371/journal.ppat.1012142).